Experimental data published in patent US20260102474A1.

Target: Delta (SARS-COV-2)
Experiment: competition

REGN10933
IC50: 0.4 nM
